{"source": "paper PMC5223167", "biological_target": "T1, PPE2 (nuclear extract) (UniProt P9WI47)", "T1 sequence (looked up, limits assumed)": "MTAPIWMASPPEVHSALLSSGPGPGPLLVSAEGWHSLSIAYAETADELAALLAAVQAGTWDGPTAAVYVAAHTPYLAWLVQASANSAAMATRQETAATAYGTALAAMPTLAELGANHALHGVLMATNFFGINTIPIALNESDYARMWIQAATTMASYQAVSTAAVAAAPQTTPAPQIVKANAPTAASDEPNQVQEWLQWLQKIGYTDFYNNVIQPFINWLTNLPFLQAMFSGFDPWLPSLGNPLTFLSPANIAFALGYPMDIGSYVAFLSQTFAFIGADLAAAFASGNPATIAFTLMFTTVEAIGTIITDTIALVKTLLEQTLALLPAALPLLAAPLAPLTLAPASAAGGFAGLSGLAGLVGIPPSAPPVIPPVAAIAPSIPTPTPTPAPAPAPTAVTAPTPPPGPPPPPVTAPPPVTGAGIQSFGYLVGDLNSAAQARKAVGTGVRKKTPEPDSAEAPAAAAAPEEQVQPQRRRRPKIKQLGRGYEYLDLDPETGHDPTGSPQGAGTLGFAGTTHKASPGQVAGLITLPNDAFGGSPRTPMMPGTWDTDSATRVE", "assay": "EMSA supershift", "settings": "anti-PPE2 antibody, 20 mM HEPES (pH not stated), 0.5 mM DTT, 0.5 mM EDTA, 5% glycerol, room temperature, 30 min, protein in an extract, label: 32P 5' end", "note": "Construct, isoform or probe ends are uncertain for at least one entry. Where cells or extracts were used, other partners may take part. Protein sequences can lack the tags named with them.", "data": [{"sequence": "GGGGTATAAATACCTGATGGCTGCTGCCAG (double strand) [inos proximal GATA-1 element (overlaps TATA box)]", "values": [{"measurement": "binding result", "result": "binds"}]}]}
